Target: isolated voltage-sensor domain of the voltage-gated potassium channel KvAP (VSDK), wild type (UniProt Q9YDF8)
Experiment: pull-down

## VSTx1 R24A (peptide)
  percent decrease in binding against wild-type VSTx1: 38%
